Reference: publication PMC11053489 (Viruses, 2024)
Where a name gives a salt, the structure may show the parent alone. Read-outs that look alike come from different tables or passages of the source.

Test system: SARS-CoV-2 (hCoV-19/USA-WA1/2020) in Vero CCL-81 cells
Type: cell-based

Row | Compound | Vero CCL-81 unbound Cmax/EC50 (Table 1 drugs, Cmax × Fun/EC50) | Unbound Cmax/EC50 (Table 3, Vero CCL-81 cells) | also measured
1 | Cc1cccc(/C=N/Nc2cc(N3CCOCC3)nc(OCCc3ccccn3)n2)c1 [Apilimod mesylate] | * 0.062 |  | Vero CCL-81 unbound Cmax/EC50 (Table 1 drugs, Cmax × Fun/EC50, listed as Apilimod): 0.062
2 | CCC(CC)COC(=O)[C@H](C)N[P@](=O)(OC[C@H]1O[C@@](C#N)(c2ccc3c(N)ncnn23)[C@H](O)[C@@H]1O)Oc1ccccc1 [Remdesivir] |  |  | Vero CCL-81 unbound Cmax/EC50: 0.14
3 | CC(c1cc2ccccc2s1)N(O)C(N)=O (stereo not drawn) [Zileuton] | 0.02 |  | 
4 | CC(C)C(=O)OCC(=O)[C@@]12O[C@H](C3CCCCC3)O[C@@H]1C[C@H]1[C@@H]3CCC4=CC(=O)C=C[C@]4(C)[C@H]3[C@@H](O)C[C@@]12C [Ciclesonide] |  | 1.9 × 10^−6 | 
5 | CCCCCc1cc(O)c2c(c1)OC(C)(C)c1ccc(C)cc1-2 [Cannabinol] |  |  | Unbound Cmax/EC50: 0.0011
6 | CN1CC[C@H](c2c(O)cc(O)c3c(=O)cc(-c4ccccc4Cl)oc23)[C@H](O)C1 [Flavopiridol] |  | 0.99 | 
7 | COc1ccc2[nH]cc(CCNC(C)=O)c2c1 [Melatonin] |  | 0.0002 | 
8 | Cc1ccc(-c2cc(C(F)(F)F)nn2-c2ccc(S(N)(=O)=O)cc2)cc1 [Celecoxib] | 0.008 |  | 
9 | CN(C)CCC(c1ccc(Cl)cc1)c1ccccn1 (stereo not drawn) [Chlorpheniramine maleate] |  | 0.0002 | 
10 | Cc1cccc(Nc2ccccc2C(=O)O)c1C [Mefenamic acid] | 0.018 |  | 
11 | CC#CC(=O)N1CCC[C@H]1c1nc(-c2ccc(C(=O)Nc3ccccn3)cc2)c2c(N)nccn12 [Acalabrutinib] |  | 0.002 | 
12 | CC(C)C(=O)OC[C@H]1O[C@@](C#N)(c2ccc3c(N)ncnn23)[C@H](O)[C@@H]1O [Obeldesivir] | 7.2 |  | 
13 | CC(C)C(=O)OC[C@H]1O[C@@H](n2ccc(NO)nc2=O)[C@H](O)[C@@H]1O [Molnupiravir (NHC), Molnupiravir] | 4.58 |  | 
14 | NC(N)=Nc1nc(CSCCC(N)=NS(N)(=O)=O)cs1 [Famotidine] |  | 0.001 | 
15 | Cc1cc(C2=NO[C@@](c3cc(Cl)c(Cl)c(Cl)c3)(C(F)(F)F)C2)sc1C(=O)NCC(=O)NCC(F)(F)F [Lotilaner] |  |  | Unbound Cmax/EC50: 0.0035
16 | COC(=O)N[C@H](C(=O)N1CCC[C@H]1c1nc(-c2ccc3c(c2)O[C@@H](c2ccccc2)n2c-3cc3cc(-c4c[nH]c([C@@H]5CCCN5C(=O)[C@@H](NC(=O)OC)C(C)C)n4)ccc32)c[nH]1)C(C)C [Elbasivir] |  | 0.001 | 
17 | CN(Cc1cc(Br)cc(Br)c1N)C1CCCCC1 [Bromhexine] |  | 0.006 | 
18 | COC(=O)N[C@H](C(=O)N1CCC[C@H]1c1nc(-c2ccc(-c3ccc(-c4c[nH]c([C@@H]5CCCN5C(=O)[C@@H](NC(=O)OC)C(C)C)n4)cc3)cc2)c[nH]1)C(C)C [Daclatasvir] | 0.03 |  | 
19 | N#C[C@@]1(c2ccc3c(N)ncnn23)O[C@H](CO)[C@@H](O)[C@H]1O [GS-441524] |  |  | Vero CCL-81 unbound Cmax/EC50: 3.0
20 | NC(=O)c1nc(F)c[nH]c1=O [Favipiravir] | 2.1 |  | 
21 | CC(C)(C)[C@H](NC(=O)C(F)(F)F)C(=O)N1C[C@H]2[C@@H]([C@H]1C(=O)N[C@H](C#N)C[C@@H]1CCNC1=O)C2(C)C [Nirmatrelvir] |  |  | Vero CCL-81 unbound Cmax/EC50: 0.21
22 | C[C@H]1c2cccc(O)c2C(=O)C2=C(O)[C@]3(O)C(=O)C(C(N)=O)=C(O)[C@@H](N(C)C)[C@@H]3[C@@H](O)[C@@H]21 [Doxycycline] |  | 0.008 | 
23 | O=C(O)Cc1ccccc1Nc1c(Cl)cccc1Cl [Diclofenac sodium] |  |  | Unbound Cmax/EC50: 0.0001
24 | COC[C@H]1C[C@@H](c2nc(-c3ccc4c(c3)COc3cc5c(ccc6nc([C@@H]7CC[C@H](C)N7C(=O)[C@@H](NC(=O)OC)C(C)C)[nH]c65)cc3-4)c[nH]2)N(C(=O)[C@H](NC(=O)OC)c2ccccc2)C1 [Velpatasvir] |  | 7.8 × 10^−5 | 
25 | O=c1c2ccccc2[se]n1-c1ccccc1 [Ebselen] | 0.012 |  | 
26 | CC(=O)Oc1ccccc1C(=O)Nc1ncc([N+](=O)[O-])s1 [Nitazoxanide] | 0.25 |  | 
